Results taken from publication PMC9739877, “Discovery and Mechanistic Investigation of Piperazinone Phenylalanine Derivatives with Terminal Indole or Benzene Ring as Novel HIV-1 Capsid Modulators” (Molecules, 2022).

Experiments:
HIV-2 (ROD) = assay: Anti-HIV-2 (ROD) activity in MT-4 cells, MTT assay; type: cell-based; conditions: selectivity index CC50/EC50, HIV-2 ROD
Procedure: (§1) II. In vitro anti-HIV Assay in MT-4 Cells
(§2) Evaluation of the antiviral activity of the compounds against HIV in MT-4 cells was performed using the MTT assay as described below. Stock solutions (10 × final concentration) of test compounds were added in 25 µL volumes to two series of triplicate wells to allow simultaneous evaluation of their effects on mock- and HIV-infected cells at the beginning of each experiment. Serial 5-fold dilutions of test compounds were made directly in flat-bottomed 96-well microtiter trays using a Biomek 3000 robot (Beckman Instruments, Fullerton, CA). Untreated HIV- and mock-infected cell samples were included as controls. HIV stock (50 µL) at 100-300 CCID50 (50 % cell culture infectious doses) or culture medium was added to either the infected or mock-infected wells of the microtiter tray. Mock-infected cells were used to evaluate the effects of the test compound on uninfected cells to assess the test compounds' cytotoxicity. Exponentially growing MT-4 cells were centrifuged for 5 minutes at 220 g, and the supernatant was discarded. […]
(§3) cells/mL, and 50 µL volumes were transferred to the microtiter tray wells. Five days after infection, the viability of mock-and HIV-infected cells was examined spectrophotometrically using the MTT assay. The MTT assay is based on the reduction of yellow colored 3-(4,5-dimethylthiazol-2-yl)-2,5-diphenyltetrazolium bromide (MTT) (Acros Organics) by mitochondrial dehydrogenase activity in metabolically active cells to a blue-purple formazan that can be measured spectrophotometrically. The absorbances were read in an eight-channel computer-controlled photometer (Infinite M1000, Tecan), at two wavelengths (540 and 690 nm). All data were calculated using the median absorbance value of three wells. […]
(§4) was defined as the concentration of the test compound that reduced the absorbance (OD540) of the mock-infected control sample by 50%. The concentration achieving 50% protection against the cytopathic effect of the virus in infected cells was defined as the […]

HIV-1 (IIIB) = type: cell-based; conditions: selectivity index CC50/EC50, HIV-1 IIIB
Procedure: as §1, §2, §3, §4

## COc1ccc(N(C)C(=O)[C@H](Cc2ccccc2)NC(=O)CN2CCN(C(=O)Cc3c(C)[nH]c4ccccc34)CC2=O)cc1 [7a, (S)-N-(4-methoxyphenyl)-N-methyl-2-(2-(4-(2-(2-methyl-1H-indol-3-yl)acetyl)-2-oxopiperazin-1-yl)acetamido)-3-phenylpropanamide]
HIV-2 (ROD)
  SI ROD: 13.90

## COc1ccc(N(C)C(=O)[C@H](Cc2ccccc2)NC(=O)CN2CCN(C(=O)Cc3c[nH]c4ccc(OC)cc34)CC2=O)cc1 [7b, (S)-2-(2-(4-(2-(5-methoxy-1H-indol-3-yl)acetyl)-2-oxopiperazin-1-yl)acetamido)-N-(4-methoxyphenyl)-N-methyl-3-phenylpropanamide]
HIV-1 (IIIB)
  SI IIIB: 7.15
HIV-2 (ROD)
  SI ROD: 6.15

## COc1ccc(N(C)C(=O)[C@H](Cc2ccccc2)NC(=O)CN2CCN(C(=O)Cc3c[nH]c4ccc(Br)cc34)CC2=O)cc1 [7c, (S)-2-(2-(4-(2-(5-bromo-1H-indol-3-yl)acetyl)-2-oxopiperazin-1-yl)acetamido)-N-(4-methoxyphenyl)-N-methyl-3-phenylpropanamide]
HIV-1 (IIIB)
  SI IIIB: <1
HIV-2 (ROD)
  SI ROD: <1

## COc1ccc(N(C)C(=O)[C@H](Cc2ccccc2)NC(=O)CN2CCN(C(=O)Cc3c[nH]c4ccccc34)CC2=O)cc1 [7d, (S)-2-(2-(4-(2-(1H-indol-3-yl)acetyl)-2-oxopiperazin-1-yl)acetamido)-N-(4-methoxyphenyl)-N-methyl-3-phenylpropanamide]
HIV-1 (IIIB)
  SI IIIB: 7.51
HIV-2 (ROD)
  SI ROD: 22.99

## COc1ccc(N(C)C(=O)[C@H](Cc2ccccc2)NC(=O)CN2CCN(C(=O)Cc3c[nH]c4ccc(O)cc34)CC2=O)cc1 [7e, (S)-2-(2-(4-(2-(5-hydroxy-1H-indol-3-yl)acetyl)-2-oxopiperazin-1-yl)acetamido)-N-(4-methoxyphenyl)-N-methyl-3-phenylpropanamide]
HIV-1 (IIIB)
  SI IIIB: >1.06
HIV-2 (ROD)
  SI ROD: >1.12

## COc1ccc(N(C)C(=O)[C@H](Cc2ccccc2)NC(=O)CN2CCN(C(=O)Cc3c[nH]c4ccc(F)cc34)CC2=O)cc1 [7f, (S)-2-(2-(4-(2-(5-fluoro-1H-indol-3-yl)acetyl)-2-oxopiperazin-1-yl)acetamido)-N-(4-methoxyphenyl)-N-methyl-3-phenylpropanamide]
HIV-1 (IIIB)
  SI IIIB: 4.13
HIV-2 (ROD)
  SI ROD: 19.92

## COc1ccc(N(C)C(=O)[C@H](Cc2ccccc2)NC(=O)CN2CCN(C(=O)c3ccc(NC(C)=O)cc3)CC2=O)cc1 [7g, (S)-2-(2-(4-(4-acetamidobenzoyl)-2-oxopiperazin-1-yl)acetamido)-N-(4-methoxyphenyl)-N-methyl-3-phenylpropanamide]
HIV-1 (IIIB)
  SI IIIB: >1.05
HIV-2 (ROD)
  SI ROD: >1.16

## COc1ccc(N(C)C(=O)[C@H](Cc2ccccc2)NC(=O)CN2CCN(C(=O)c3ccc(NS(C)(=O)=O)cc3)CC2=O)cc1 [7h, (S)-N-(4-methoxyphenyl)-N-methyl-2-(2-(4-(4-(methylsulfonamido)benzoyl)-2-oxopiperazin-1-yl)acetamido)-3-phenylpropanamide]
HIV-1 (IIIB)
  SI IIIB: >1.05

## COc1ccc(N(C)C(=O)[C@H](Cc2ccccc2)NC(=O)CN2CCN(C(=O)c3ccc(NC(=O)C4CC4)cc3)CC2=O)cc1 [7i, (S)-N-(4-(4-(2-((1-((4-methoxyphenyl)(methyl)amino)-1-oxo-3-phenylpropan-2-yl)amino)-2-oxoethyl)-3-oxopiperazine-1-carbonyl)phenyl)cyclopropanecarboxamide]
HIV-1 (IIIB)
  SI IIIB: <1
HIV-2 (ROD)
  SI ROD: 11.15

## COc1ccc(N(C)C(=O)[C@H](Cc2ccccc2)NC(=O)CN2CCN(C(=O)c3ccc(NC(=O)C(F)(F)F)cc3)CC2=O)cc1 [7j, (S)-N-(4-methoxyphenyl)-N-methyl-2-(2-(2-oxo-4-(4-(2,2,2-trifluoroacetamido)benzoyl)piperazin-1-yl)acetamido)-3-phenylpropanamide]
HIV-1 (IIIB)
  SI IIIB: >1.24
HIV-2 (ROD)
  SI ROD: >13.08

## COc1ccc(N(C)C(=O)[C@H](Cc2cc(F)cc(F)c2)NC(=O)CN2CCN(C(=O)Cc3c(C)[nH]c4ccccc34)CC2=O)cc1 [F2-7a, (S)-3-(3,5-difluorophenyl)-N-(4-methoxyphenyl)-N-methyl-2-(2-(4-(2-(2-methyl-1H-indol-3-yl)acetyl)-2-oxopiperazin-1-yl)acetamido)propenamide]
HIV-1 (IIIB)
  SI IIIB: 3.69
HIV-2 (ROD)
  SI ROD: 3.91

## COc1ccc(N(C)C(=O)[C@H](Cc2cc(F)cc(F)c2)NC(=O)CN2CCN(C(=O)Cc3c[nH]c4ccc(OC)cc34)CC2=O)cc1 [F2-7b, (S)-3-(3,5-difluorophenyl)-2-(2-(4-(2-(5-methoxy-1H-indol-3-yl)acetyl)-2-oxopiperazin-1-yl)acetamido)-N-(4-methoxyphenyl)-N-methylpropanamide]
HIV-1 (IIIB)
  SI IIIB: <1
HIV-2 (ROD)
  SI ROD: <1

## COc1ccc(N(C)C(=O)[C@H](Cc2cc(F)cc(F)c2)NC(=O)CN2CCN(C(=O)Cc3c[nH]c4ccc(Br)cc34)CC2=O)cc1 [F2-7c, (S)-2-(2-(4-(2-(5-bromo-1H-indol-3-yl)acetyl)-2-oxopiperazin-1-yl)acetamido)-3-(3,5-difluorophenyl)-N-(4-methoxyphenyl)-N-methylpropanamide]
HIV-1 (IIIB)
  SI IIIB: <1
HIV-2 (ROD)
  SI ROD: <1

## COc1ccc(N(C)C(=O)[C@H](Cc2cc(F)cc(F)c2)NC(=O)CN2CCN(C(=O)Cc3c[nH]c4ccccc34)CC2=O)cc1 [F2-7d, (S)-2-(2-(4-(2-(1H-indol-3-yl)acetyl)-2-oxopiperazin-1-yl)acetamido)-3-(3,5-difluorophenyl)-N-(4-methoxyphenyl)-N-methylpropanamide]
HIV-1 (IIIB)
  SI IIIB: 1.97
HIV-2 (ROD)
  SI ROD: 3.28

## COc1ccc(N(C)C(=O)[C@H](Cc2cc(F)cc(F)c2)NC(=O)CN2CCN(C(=O)Cc3c[nH]c4ccc(O)cc34)CC2=O)cc1 [F2-7e, (S)-3-(3,5-difluorophenyl)-2-(2-(4-(2-(5-hydroxy-1H-indol-3-yl)acetyl)-2-oxopiperazin-1-yl)acetamido)-N-(4-methoxyphenyl)-N-methylpropanamide]
HIV-1 (IIIB)
  SI IIIB: <1
HIV-2 (ROD)
  SI ROD: ≤2.65

## COc1ccc(N(C)C(=O)[C@H](Cc2cc(F)cc(F)c2)NC(=O)CN2CCN(C(=O)Cc3c[nH]c4ccc(F)cc34)CC2=O)cc1 [F2-7f, (S)-3-(3,5-difluorophenyl)-2-(2-(4-(2-(5-fluoro-1H-indol-3-yl)acetyl)-2-oxopiperazin-1-yl)acetamido)-N-(4-methoxyphenyl)-N-methylpropanamide]
HIV-1 (IIIB)
  SI IIIB: 2.78
HIV-2 (ROD)
  SI ROD: 3.23

## COc1ccc(N(C)C(=O)[C@H](Cc2cc(F)cc(F)c2)NC(=O)CN2CCN(C(=O)c3ccc(NC(C)=O)cc3)CC2=O)cc1 [F2-7g, (S)-2-(2-(4-(4-acetamidobenzoyl)-2-oxopiperazin-1-yl)acetamido)-3-(3,5-difluorophenyl)-N-(4-methoxyphenyl)-N-methylpropanamide]
HIV-1 (IIIB)
  SI IIIB: 1.11
HIV-2 (ROD)
  SI ROD: 1.02

## COc1ccc(N(C)C(=O)[C@H](Cc2cc(F)cc(F)c2)NC(=O)CN2CCN(C(=O)c3ccc(NS(C)(=O)=O)cc3)CC2=O)cc1 [F2-7h, (S)-3-(3,5-difluorophenyl)-N-(4-methoxyphenyl)-N-methyl-2-(2-(4-(4-(methylsulfonamido)benzoyl)-2-oxopiperazin-1-yl)acetamido)propenamide]
HIV-1 (IIIB)
  SI IIIB: >1.18
HIV-2 (ROD)
  SI ROD: >1.04

## COc1ccc(N(C)C(=O)[C@H](Cc2cc(F)cc(F)c2)NC(=O)CN2CCN(C(=O)c3ccc(NC(=O)C4CC4)cc3)CC2=O)cc1 [F2-7i, (S)-N-(4-(4-(2-((3-(3,5-difluorophenyl)-1-((4-methoxyphenyl)(methyl)amino)-1-oxopropan-2-yl)amino)-2-oxoethyl)-3-oxopiperazine-1-carbonyl)phenyl)cyclopropanecarboxamide]
HIV-1 (IIIB)
  SI IIIB: 6.17
HIV-2 (ROD)
  SI ROD: 5.87

## COc1ccc(N(C)C(=O)[C@H](Cc2cc(F)cc(F)c2)NC(=O)CN2CCN(C(=O)c3ccc(NC(=O)C(F)(F)F)cc3)CC2=O)cc1 [F2-7j, (S)-3-(3,5-difluorophenyl)-N-(4-methoxyphenyl)-N-methyl-2-(2-(2-oxo-4-(4-(2,2,2-trifluoroacetamido)benzoyl)piperazin-1-yl)acetamido)propenamide]
HIV-1 (IIIB)
  SI IIIB: 10.95
HIV-2 (ROD)
  SI ROD: 9.09
